Pooled drug test results. Numbers come from NIAID ChemDB, via PubChem.

Common to all: whole-cell or culture tests; organism: Candida tropicalis; measure: MIC80

Rows are shuffled and stem from different studies.

structure,strain or isolate,result
C[C@@H](c1ncncc1F)[C@](O)(Cn1cncn1)c1ccc(F)cc1F,107,0.03 µg/mL
Cc1cc(C)cc(NC(=O)CN(C)CC(O)(Cn2cncn2)c2ccc(F)cc2F)c1,,4 µg/mL
O=C1S/C(=C\c2ccc(Br)cc2)C(=O)N1CC(O)(Cn1nccn1)c1ccc(F)cc1F,,1.92 µg/mL
CCCCN(Cc1cn(Cc2cccc(Cl)c2)nn1)CC(O)(Cn1cncn1)c1ccc(F)cc1F,,<0.125 µg/mL
COc1cccc(NC(=O)CN(C)CC(O)(Cn2cncn2)c2ccc(F)cc2F)c1,,16 µg/mL
CCCCN(Cc1cn(Cc2ccc([N+](=O)[O-])cc2)nn1)CC(O)(Cn1cncn1)c1ccc(F)cc1F,,8 µg/mL
Cc1ccc(/C=C2\SC(=O)N(CC(O)(Cn3nccn3)c3ccc(F)cc3F)C2=O)c(C)c1,,8.5 µg/mL
CCCCN(Cc1cn(Cc2ccccc2[N+](=O)[O-])nn1)CC(O)(Cn1cncn1)c1ccc(F)cc1F,,2 µg/mL
Cc1ccc(NC(=O)CN(C)CC(O)(Cn2cncn2)c2ccc(F)cc2F)c(C)c1,,64 µg/mL
O=C1S/C(=C\c2ccccn2)C(=O)N1CC(O)(Cn1nccn1)c1ccc(F)cc1F,,9.02 µg/mL
CN(CC(=O)Nc1ccccc1[N+](=O)[O-])CC(O)(Cn1cncn1)c1ccc(F)cc1F,,4 µg/mL
CCCCN(Cc1cn(Cc2cccc(F)c2)nn1)CC(O)(Cn1cncn1)c1ccc(F)cc1F,,<0.125 µg/mL
O=C1S/C(=C\c2ccc(Cl)cc2Cl)C(=O)N1CC(O)(Cn1nccn1)c1ccc(F)cc1F,,0.0078 µg/mL
CCCCN(Cc1cn(Cc2ccccc2F)nn1)CC(O)(Cn1cncn1)c1ccc(F)cc1F,,2 µg/mL
CC(C)(C)c1ccc(/C=C2\SC(=O)N(CC(O)(Cn3nccn3)c3ccc(F)cc3F)C2=O)cc1,,0.5 µg/mL

For reference, 2 entries again:

structure | strain or isolate | result
Cc1cc(C)cc(NC(=O)CN(C)CC(O)(Cn2cncn2)c2ccc(F)cc2F)c1 |  | 4 µg/mL
CCCCN(Cc1cn(Cc2cccc(Cl)c2)nn1)CC(O)(Cn1cncn1)c1ccc(F)cc1F |  | <0.125 µg/mL

MIC50, MIC90 and the like: level of inhibition, or share of isolates inhibited. An empty or dashed field is not shown.